A mixed list of measured activities; the numbers were collected in NIAID ChemDB.

All rows: whole-cell or culture tests; species: HIV-1; cell line: MT-4; read by: p24; measure: EC95

Lines come from different laboratories, so protocols vary. ECn is the concentration giving n% inhibition of infection, replication or growth. Blank or dashed fields: not listed here. a–b is a range or a potency band.

| compound | strain or isolate | mutations | result |
|---|---|---|---|
| CN(C)C(=O)C(=O)N(C)C1COCCn2c1nc(C(=O)NCc1ccc(F)cc1)c(O)c2=O |  |  | <1 µM |
| COC(=O)c1sccc1NC(=O)CSc1nnnn1-c1c(C)cc(C)cc1C |  |  | <10 µM |
| N#Cc1cc(Cl)cc(Oc2cc(OCc3[nH]nc4nc(N)ccc34)cc(F)c2Cl)c1 |  |  | <20 µM |
| CC1(C)c2nc(C(=O)NCc3ccc(F)cc3)c(O)c(=O)n2CCN1CC(=O)NCc1ccncc1 |  |  | <1 µM |
| N#Cc1cc(Cl)cc(Oc2cc(OCc3cn(-c4ccccc4)nn3)ccc2Cl)c1 |  |  | <20 µM |
| O=C(NCc1ccc(F)cc1)c1nc2n(c(=O)c1O)CCNC2 |  |  | <50 µM |
| Cc1cc(C)c(-n2nnnc2SCC(=O)Nc2ccc(F)cc2F)c(C)c1 |  |  | <10 µM |
| CN(C)C(=O)C(=O)N1CCc2nc(C(=O)NCc3ccc(F)cc3)c(O)c(=O)n2CC1 |  |  | <50 µM |
| O=C1c2c(O)c(=O)n(CC3CCCCC3)c(=S)n2CCN1Cc1ccc(F)cc1 |  |  | <10 µM |
| Cc1cc(C)c(-n2nnnc2SCC(=O)Nc2ccc(S(N)(=O)=O)cc2C)c(C)c1 |  |  | <10 µM |
| CN1CCn2c(nc(C(=O)NCc3ccc(F)cc3)c(O)c2=O)C1CN(C)S(C)(=O)=O |  |  | 1–10 µM |
| CC(C)[C@H](NC(=O)OCc1ccccn1)C(=O)N[C@@H](Cc1ccccc1)[C@@H](O)C[C@H](Cc1ccccc1)NC(=O)OCc1cccnc1 | NL4-3 | PR-L63P | 1.5 µM |
| CS(=O)(=O)c1ccc2c(c1)CCN2C(=O)COc1cc(Cl)cc(Oc2cc(Cl)cc(C#N)c2)c1 |  |  | <20 µM |
| CC(C)(C)C1CCC(n2c(=O)c(O)c3n(c2=O)CCN(Cc2ccc(F)cc2)C3=O)CC1 |  |  | <10 µM |
| O=C(CCSc1nnnn1-c1cccc2ccccc12)Nc1ccccc1[N+](=O)[O-] |  |  | <10 µM |
| N#Cc1cc(Cl)cc(Oc2cc(OCc3nc4cccc(Cl)c4s3)ccc2Cl)c1 |  |  | <20 µM |
| CC(C)NC(=O)N(C)CCC1CN(Cc2ccc(F)cc2)C(=O)c2c(O)c(=O)n(C(C)C)c(=O)n21 |  |  | <10 µM |
| CN1CCn2c(nc(C(=O)NCc3ccc(F)cc3)c(O)c2=O)C(NCC2CCCCC2)C1 |  |  | <50 µM |
| O=C1c2c(O)c(=O)n(C3Cc4ccccc4C3)c(=O)n2CCN1Cc1ccc(F)cc1 |  |  | <10 µM |
| N#Cc1cc(Cl)cc(Oc2cc(OCc3nc4ccccc4s3)ccc2Cl)c1 |  |  | <20 µM |
| CC(=O)N(C)CCC1CN(Cc2ccc(F)cc2)C(=O)c2c(O)c(=O)n(C(C)C)c(=O)n21 |  |  | <10 µM |
| N#Cc1cc(Cl)cc(Oc2cc(OCc3[nH]nc4nc(N5CCC(N)C5)ccc34)ccc2Cl)c1 |  |  | <20 µM |
| CC(C)n1c(=O)c(O)c2n(c1=O)CCN(Cc1cccc3ccccc13)C2=O |  |  | <10 µM |
| CS(=O)(=O)N1CCc2nc(C(=O)NCc3ccc(F)cc3)c(O)c(=O)n2CC1 |  |  | <50 µM |
| O=C1c2c(O)c(=O)n(C3CCC(O)CC3)c(=O)n2CCN1Cc1ccc(F)cc1 |  |  | <10 µM |
| CC1c2nc(C(=O)NCc3ccc(F)cc3)c(O)c(=O)n2CCN1C |  |  | <1 µM |
| O=C1c2c(O)c(=O)n(CC3CCCN(c4ncccn4)C3)c(=O)n2CCN1Cc1ccc(F)cc1 |  |  | <10 µM |
| NS(=O)(=O)c1ccc(NC(=O)CSc2nnnn2-c2cc(Cl)ccc2Cl)c(Cl)c1 |  |  | <10 µM |

4 of the rows above, restated:

compound | strain or isolate | mutations | result
N#Cc1cc(Cl)cc(Oc2cc(OCc3nc4ccccc4s3)ccc2Cl)c1 |  |  | <20 µM
CC1(C)c2nc(C(=O)NCc3ccc(F)cc3)c(O)c(=O)n2CCN1CC(=O)NCc1ccncc1 |  |  | <1 µM
CC1c2nc(C(=O)NCc3ccc(F)cc3)c(O)c(=O)n2CCN1C |  |  | <1 µM
O=C(NCc1ccc(F)cc1)c1nc2n(c(=O)c1O)CCNC2 |  |  | <50 µM